Measured values: PMC3823233

Molecular target: JRFL gp120 core containing a short (mini) V3 region (HIV-1 (isolate JR-FL))
Test: ITC

Substance: PGT 135 Fab
- Kd: 82 nM
